Pooled drug test results. Numbers come from NIAID ChemDB, via PubChem.

Shared fields: tests on isolated targets; agent: HIV-1; protein: Tat:TAR/LTR

An empty or dashed field is not shown.

structure,method,read-out,value
CC(=O)NCCN(CCC(=O)NCCN(CCC(=O)NCCN(CCC(=O)NCCN(CCC(=O)NCCN(CCC(=O)NCCC(N)=O)C(=O)[C@@H](N)Cc1ccccc1)C(=O)[C@@H](N)CCCN=C(N)N)C(=O)[C@@H](N)Cc1ccccc1)C(=O)[C@@H](N)CCCCN)C(=O)[C@@H](N)CCCN=C(N)N,FRET / fluorescence,IC50,0.362 µM
COc1ccc2nc3cc(Cl)ccc3c(NCCCCN(CCCCN)CCCCN)c2c1,gel,IC50,0.027 µM
Nc1cc2c(=O)c(C(=O)O)cn(C3CC3)c2cc1N1CCN(c2cccc(C(F)(F)F)c2)CC1,gel,Ki,3.8 µM
NCCNc1c2ccccc2nc2ccccc12,gel,IC50,800 µM
COC1CC[C@@H](OCCCN=C(N)N)[C@@H](COCCCN=C(N)N)O1,FRET,Ki,2.75 µM
CNC(=O)[C@@H](Cc1ccccc1)NP(=O)(O)OC[C@H]1O[C@@H](n2cc(C)c(=O)[nH]c2=O)C[C@@H]1N=[N+]=[N-],fluorescence,Ki,0.03 µM
NCCCCN(CCCN)CCNC(=O)c1c2ccccc2nc2ccccc12,gel,IC50,>1 µM
NCCCC[C@H](COC(=O)O)NC(=O)CN(CCCCN)C(=O)OC[C@@H](N)CCCN=C(N)N,nucleotide incorporation / radiometric,Ki,1 µM
COc1ccc2nc3cc(Cl)ccc3c(NCCCCCN(CCCCN)CCCCN)c2c1,gel,IC50,0.03 µM
c1ccc2sc(Oc3ccc(-c4cc5ccccc5s4)cc3CNCCN3CCNCC3)cc2c1,FRET,Ki,2.89 µM
CC(=O)NCCN(CCC(=O)NCCN(CCC(=O)NCCN(CCC(=O)NCCN(CCC(=O)NCCN(CCC(=O)NCCC(N)=O)C(=O)[C@@H](N)Cc1ccccc1)C(=O)[C@@H](N)CCCN=C(N)N)C(=O)[C@@H](N)Cc1ccccc1)C(=O)[C@@H](N)Cc1ccccc1)C(=O)[C@@H](N)CCCCN,FRET / fluorescence,IC50,>2 µM
COc1ccc(OCCCN)c(CN2CCN(C(=N)N)CC2)c1,FRET,Ki,350 µM
CC(=O)NCCN(CCC(=O)NCCN(CCC(=O)NCCN(CCC(=O)NCCN(CCC(=O)NCCN(CCC(=O)NCCC(N)=O)C(=O)[C@@H](N)Cc1ccccc1)C(=O)[C@@H](N)CCCN=C(N)N)C(=O)[C@@H](N)Cc1ccccc1)C(=O)[C@@H](N)CCCN=C(N)N)C(=O)[C@@H](N)CCCCN,FRET / fluorescence,IC50,0.0347 µM
NCCCOc1ccc(-c2ccccc2)cc1CNCC1CCNCC1,FRET,Ki,1.19 µM
COc1ccc2nc3cc(Cl)ccc3c(NCCCN(CCCCN)CCCCN)c2c1,gel,IC50,0.044 µM
NC(=O)c1ccn2c1CS[C@@H]2c1cccnc1,-,Ki,>100 µM
NCCCCN(CCCN)CCCN1C(=O)c2cccc3cc([N+](=O)[O-])cc(c23)C1=O,gel,IC50,0.03 µM
NCCCC[C@H]1NC(=O)[C@H](CCCN=C(N)N)NC(=O)[C@H](Cc2ccccc2)NC(=O)[C@H](CCCN=C(N)N)NC(=O)[C@H](CCCN=C(N)N)NC1=O,FRET,Ki,17.07 µM
NCCCOc1ccc(-c2ccc3[nH]ccc3c2)cc1CNCCN1CCNCC1,FRET,Ki,0.039 µM

For reference, 2 entries again:

{"structure": "NCCCOc1ccc(-c2ccccc2)cc1CNCC1CCNCC1", "method": "FRET", "read-out": "Ki", "value": "1.19 µM"}
{"structure": "NCCCOc1ccc(-c2ccc3[nH]ccc3c2)cc1CNCCN1CCNCC1", "method": "FRET", "read-out": "Ki", "value": "0.039 µM"}

ICn: concentration for n% inhibition. Rows are shuffled and stem from different studies.